Assay results as given in patent publication US4772551A (priority 1985, dated 1988).

Test system: T-2 reactive monoclonal antibody
Experiment: CEIA of various trichothecenes with T-2 reactive monoclonal antibody
Type: binding, murine
Details: 10% methanol/PBS; T2HS-ovalbumin solid phase

Row | Structure (SMILES) | Minimal Inhibition (concentration required for first significant inhibition of binding of antibody) [ug/ml]
1 | CC1=C[C@H]2O[C@@H]3C[C@H]4OC(=O)/C=C\C=C\C(C(C)O)OCCC(C)C(O)C(=O)OC[C@@]2(CC1)[C@]4(C)[C@]31CO1 (some centres unmarked) | > 5000.
2 | CC1=C[C@H]2O[C@@H]3C[C@@H](O)[C@](C)([C@@]2(CO)CC1)[C@]31CO1 | 500.
